A mixed list of measured activities; the numbers were collected in NIAID ChemDB.

Common to all: cytotoxicity tests; cells: C8166; read-out: CC50

An empty or dashed field is not shown.

C[C@@H]1C(=O)[C@@]2(C)CC[C@]34C[C@]56OC(=O)C[C@H]5O[C@@](C)(CO)[C@@H]6C[C@@H]5O[C@@]53C(=O)[C@@]3(O[C@@]5(C[C@H](C)C(=O)O5)[C@@H]1[C@H]32)O4 ; read by: MTT ; value: 83 µg/mL
O=c1[nH]cnc2c1ncn2[C@H]1CC[C@@H](CO)O1 ; value: >967 µM
CC(=O)[C@]12CCC(C)(C)C=C1C1=CCC3[C@@]4(C)CCC(=O)C(C)(C)C4[C@H](O)C[C@@]3(C)[C@]1(C)CC2 ; read by: MTT ; value: 72.8 µM
CC(C)(C)CC(C)(C)c1ccc(OCCOCCOCCOCCOCCOCCOCCOCCOCCOCCO)cc1 ; value: >10 µg/mL
CC(=O)[C@]12CCC(C)(C)CC1C1=CCC3[C@@]4(C)CCC(=O)C(C)(C)C4[C@H](O)C[C@@]3(C)[C@]1(C)CC2 ; read by: MTT ; value: 27.97 µM
C[C@@H]1O[C@@H](Oc2c(-c3ccc(O)c(O)c3)oc3cc(O)cc(O)c3c2=O)[C@H](O)[C@H](O)[C@H]1O ; value: >100 µg/mL
COc1cc([C@H](O)[C@H](COC(C)=O)Oc2ccc(C(=O)CCO)cc2OC)ccc1O ; read by: MTT ; value: 215.8 µg/mL
CCO[C@H]1C[C@H](n2cc(C)c(=O)[nH]c2=O)O[C@@H]1CO ; value: >100 µM
CONc1nc(=O)n([C@H]2C[C@H](N=[N+]=[N-])[C@@H](CO)O2)cc1C ; value: 200 µM
Fc1cccc2c1nc(OCCNC(=S)Nc1ccc(Br)cn1)c1cccn12 ; value: 125 µM
Cc1cn([C@H]2C[C@H](N=[N+]=[N-])[C@@H](CO)O2)c(=O)nc1NN(C)C ; value: >1000 µM
C=C(C)[C@]12C[C@@H](C)[C@@]34OC(c5ccccc5)(O[C@@H]1[C@@H]3[C@@H]1O[C@]1(CO)[C@@H](O)[C@@]1(O)[C@H]4C[C@H](C)[C@@H]1OC(=O)c1ccccc1)O2 ; read by: MTT ; value: 31.8 µM
Cc1cn([C@H]2C[C@H](N=[N+]=[N-])[C@@H](CO)O2)c(=O)[nH]c1=O ; value: >200 µg/mL
COC(=O)CCC(C)[C@H]1CCC2C3CC[C@@H]4C[C@H](OC(=O)c5ccccc5)CC[C@]4(C)C3=C(N)C(=O)[C@@]21C ; value: 50 µM
O=c1[nH]cnc2c1ncn2[C@H]1CC[C@@H](CO)O1 ; value: >250 µM
OC[C@H]1O[C@@H](Oc2cc(O)cc3c2C[C@@H](O)[C@@H](c2ccc(O)c(O)c2)O3)[C@H](O)[C@@H](O)[C@@H]1O ; read by: MTT ; value: 182 µg/mL
CC(C)[C@H](NC(=O)c1ccc2ccccc2n1)C(=O)N[C@@H](Cc1ccccc1)[C@H](O)CN1CC[C@@H](OCc2ccncc2)C[C@H]1C(=O)NC(C)(C)C ; value: 32 µM
CC(C)(C)NC(=O)[C@@H]1C[C@@H]2CCCC[C@@H]2CN1CC(O)CNC(=O)[C@@H]1N[C@@H]([C@H](NC(=O)Cc2ccccc2)C(=O)NCCNC(=O)OC(C)(C)C)SC1(C)C ; value: >100 µM
C=CCOn1c(C=C)nc2ccc(OC)cc21 ; value: 80 µM
C=C(C)[C@]12C[C@@H](C)[C@@]34OC(c5ccccc5)(O[C@@H]1[C@@H]3[C@@H]1O[C@]1(CO)[C@@H](O)[C@@]1(O)[C@H]4C[C@H](C)[C@@H]1OC(=O)/C=C/C=C/C=C/CCC)O2 ; read by: MTT ; value: 91.3 µM
O=c1cc(-c2ccccc2)oc2cc(O)cc(O)c12 ; value: 50 µg/mL
Cc1nc(CCCCCCC(=O)c2ccccc2)n2nc(-n3cccc3)ccc12 ; value: >0.005 µM
COC(=O)CCC(C)[C@H]1CCC2C3CC[C@@H]4C[C@H](OC(=O)c5ccccc5)CC[C@]4(C)C3=C(NC(=O)C(C)(C)C)C(=O)[C@@]21C ; value: 1000 µM
C=C(C)[C@H](O)COc1cc(OC)c2c(c1)C(=O)c1cc(O)cc(O)c1-2 ; read by: MTT ; value: >200 µg/mL
CN(C)Nc1ccn([C@H]2C[C@H](N=[N+]=[N-])[C@@H](CO)O2)c(=O)n1 ; value: 500 µM
CC[C@]1(c2ccccc2)Oc2cccnc2-n2cccc2C1=O ; value: 53.9 µM
CC(C)=CC(=O)C[C@@H](C)[C@H]1CC[C@@]2(C)C3[C@@H](O)C=C4C(CC[C@H](O)C4(C)C)[C@]3(C=O)CC[C@]12C ; value: 76.3 µg/mL
O=C(O)/C=C/c1ccc(O)c(O)c1 ; value: 200 µg/mL
CCNC(=O)[C@@H](NC(=O)Cc1ccccc1)[C@@H]1N[C@@H](C(=O)NCCNC(=O)[C@@H]2N[C@@H]([C@H](NC(=O)Cc3ccccc3)C(=O)NCC)SC2(C)C)C(C)(C)S1 ; value: >128 µM
CC(C)(C)CC(C)(C)c1ccc(OCCOCCOCCOCCOCCOCCOCCOCCOCCOCCOCCO)cc1 ; value: >10 µg/mL
O=C(O)c1cc(O)c(O)c(O)c1 ; read by: MTT ; value: 29.63 µM
CCN1c2ncc(CSc3ccccc3)cc2C(=O)N(C)c2ccc(Cl)nc21 ; read by: MTT ; value: >60 µM
COC(=O)C(N)(O)Cc1c[nH]c2ccccc12 ; read by: MTT ; value: >200 µg/mL
Oc1cc(O)c2c(c1)O[C@@H](c1ccc(O)c(O)c1)[C@@H](O)C2 ; value: >100 µg/mL
CC(=O)c1cc(O)c(O)c(O[C@@H]2O[C@H](CO)[C@@H](O)[C@H](O)[C@H]2O)c1 ; read by: MTT ; value: >200 µg/mL
COc1ccc2nc(C=C(C)C)n(OCC=C(C)C)c2c1 ; value: 80 µM
Cc1cn([C@H]2C[C@H](N=[N+]=[N-])[C@@H](CO)O2)c(=O)[nH]c1=O ; value: >100 µM
CC(=O)O[C@H]1C[C@H](n2ccc(=O)[nH]c2=O)O[C@@H]1COP(=O)(OCC(Cl)(Cl)Cl)OCC(Cl)(Cl)Cl ; value: >100 µM
O=C(CCc1ccc(O)cc1)c1c(O)cc(O)cc1O[C@@H]1O[C@H](CO)[C@@H](O)[C@H](O)[C@H]1O ; read by: MTT ; value: >200 µM
Cc1nc(CCCCCOCc2ccccc2)n2nc(Cl)ccc12 ; value: >0.58 µM
C=C(C)[C@@]12OC3(/C=C/C=C/C=C/CCC)O[C@@H]1[C@@H]1[C@@H]4O[C@]4(CO)[C@@H](O)[C@]4(O)C(=O)C(C)=C[C@H]4[C@@]1(O3)[C@H](C)[C@H]2OC(C)=O ; read by: MTT ; value: 20.6 µM
C[C@H](C/C=C/C(C)(C)O)[C@H]1CC[C@@]2(C)C3C(=O)C=C4C(CCC(=O)C4(C)C)[C@]3(C=O)CC[C@]12C ; value: 49.3 µg/mL
COc1cc([C@@H]2c3c(cc(OC)c(O)c3OC)C[C@H](CO)[C@H]2COS(=O)(=O)[O-])cc(OC)c1O.[Na+] ; read by: MTT ; value: >200 µg/mL
O=C(/C=C/c1ccc(O)c(O)c1)O[C@H]1[C@H](O)C[C@](O)(C(=O)O)C[C@H]1OC(=O)/C=C/c1ccc(O)c(O)c1 ; value: 40 µg/mL
CCCCCCCCCc1ccc(OCCOCCOCCOCCOCCOCCOCCOCCOCCOCCO)cc1 ; value: >10 µg/mL
COc1cc(/C=C/C(=O)O)cc(OC)c1O ; value: 200 µg/mL
O=C(CCCCCCc1ncc2ccc(Cl)nn12)c1ccccc1 ; value: >0.21 µM
C[C@H](CC(=O)CC(C)(C)O)[C@H]1CC[C@@]2(C)C3C(=O)C=C4C(CCC(=O)C4(C)C)[C@]3(C=O)CC[C@]12C ; value: 62.8 µg/mL
CC(C)=CCOn1c(C=C(C)C)nc2c(C)cccc21 ; value: 50 µM
C=C(C)[C@@]12OC3(/C=C/C=C/CCCCC)O[C@@H]1[C@@H]1[C@@H]4O[C@]4(CO)[C@@H](O)[C@]4(O)C(=O)C(C)=C[C@H]4[C@@]1(O3)[C@H](C)[C@H]2OC(=O)/C=C/c1ccc(O)c(OC)c1 ; read by: MTT ; value: 19.1 µM
Cc1ccc(S(=O)(=O)N2CC3(C[C@H]2C(=O)N/N=C/c2ccccc2Cl)SCCS3)cc1 ; read by: MTT ; value: 30.3 µM
C=C(C)[C@]12C[C@@H](C)[C@@]34OC(c5ccccc5)(O[C@@H]1[C@@H]3[C@@H]1O[C@]1(CO)[C@@H](O)[C@]1(O)C(=O)C(C)=C[C@H]14)O2 ; read by: MTT ; value: 41 µM
Nc1nc(Cl)nc2c1ncn2[C@H]1CC[C@@H](CO)O1 ; value: 360 µM
O=c1c2cccn2c2ccc(Cl)cc2n1CCNC(=S)Nc1ccc(Br)cn1 ; value: 7 µM
C=C(C)[C@@]12OC3(c4ccccc4)O[C@@H]1[C@@H]1[C@@H]4O[C@]4(CO)[C@@H](O)[C@]4(O)C(=O)C(C)=C[C@H]4[C@@]1(O3)[C@H](C)[C@H]2OC(=O)/C=C/c1ccc(O)c(OC)c1 ; read by: MTT ; value: 43.4 µM
Cc1nc(CCCCCOC(=O)c2ccccc2)n2nc(Cl)ccc12 ; value: >1.1 µM
CC(C)(C)NC(=O)[C@@H]1C[C@@H]2CCCC[C@@H]2CN1C[C@H](O)CNC(=O)[C@@H]1N[C@@H]([C@H](NC(=O)Cc2ccccc2)C(N)=O)SC1(C)C ; value: >100 µM
Cc1cn([C@H]2C[C@H](OS(C)(=O)=O)[C@@H](CO)O2)c(=O)[nH]c1=O ; value: >100 µM
COc1ccc(/C=C/C(=O)O)cc1OC ; read by: MTT ; value: 137 µM
CCCCCOn1c(CCCC)nc2c(C)cccc21 ; value: 40 µM
CN(C)c1ccc(CNC(=O)[C@@H](NC(=O)Cc2ccccc2)[C@@H]2N[C@@H](C(=O)NC[C@@H](O)CN3C[C@H]4CCCC[C@H]4C[C@H]3C(=O)NC(C)(C)C)C(C)(C)S2)cc1 ; value: >100 µM
C=C(C)/C=C/C[C@@H](C)[C@H]1CC[C@@]2(C)C3[C@@H](O)C=C4C(CC[C@H](O)C4(C)C)[C@]3(C=O)CC[C@]12C ; value: 16.2 µg/mL
COC(=O)CCC(C)[C@H]1CCC2C3CC[C@@H]4C[C@H](OC(=O)c5ccccc5)CC[C@]4(C)C3=C(NC(=O)OCc3ccccc3)C(=O)[C@@]21C ; value: 100 µM
COc1cc(OC)c2c(c1)C(=O)OC2 ; read by: MTT ; value: >200 µg/mL
O=C(Oc1cc(O)c2c(c1)O[C@H](c1ccc(O)c(O)c1)[C@@H](O)C2)c1cc(O)c(O)c(O)c1 ; value: >100 µg/mL
CC(=O)[C@]12CCC(C)(C)C=C1C1=CCC3[C@@]4(C)CCC(=O)C(C)(C)C4CC[C@@]3(C)[C@]1(C)CC2 ; read by: MTT ; value: 29.18 µM
Oc1cc(O)c2c(c1)O[C@H](c1ccc(O)c(O)c1)[C@@H](O)C2 ; read by: MTT ; value: >200 µg/mL

A second listing of 5 rows from above:

SMILES | read by | value
CC[C@]1(c2ccccc2)Oc2cccnc2-n2cccc2C1=O |  | 53.9 µM
Oc1cc(O)c2c(c1)O[C@@H](c1ccc(O)c(O)c1)[C@@H](O)C2 |  | >100 µg/mL
Cc1nc(CCCCCOCc2ccccc2)n2nc(Cl)ccc12 |  | >0.58 µM
Cc1cn([C@H]2C[C@H](N=[N+]=[N-])[C@@H](CO)O2)c(=O)[nH]c1=O |  | >100 µM
CONc1nc(=O)n([C@H]2C[C@H](N=[N+]=[N-])[C@@H](CO)O2)cc1C |  | 200 µM

Neighbouring rows are from separate reports. CCn is the concentration with n% toxicity to the cells.